The target of this test is 35S-HaPrPsen (Mesocricetus auratus, UniProt P04273). It is filed as biochemical, hamster.

Protein sequences, listed by entry. Tags and fused reporters are not part of them. Residues count along the entry.
UniProt P04273, 23-231 limits assumed: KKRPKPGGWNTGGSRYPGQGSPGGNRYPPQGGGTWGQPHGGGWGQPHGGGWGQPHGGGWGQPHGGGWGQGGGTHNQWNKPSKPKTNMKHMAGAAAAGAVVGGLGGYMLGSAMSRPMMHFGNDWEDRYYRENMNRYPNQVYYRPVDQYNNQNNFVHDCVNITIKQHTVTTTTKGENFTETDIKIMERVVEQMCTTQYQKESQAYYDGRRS

On to `CSCC[C@H](NC(=O)[C@H](C)NC(=O)[C@H](CO)NC(=O)CNC(=O)[C@H](CC(C)C)NC(=O)[C@H](CCSC)NC(=O)[C@H](Cc1ccc(O)cc1)NC(=O)CNC(=O)CNC(=O)[C@H](CC(C)C)NC(=O)CNC(=O)CNC(=O)[C@@H](NC(=O)[C@@H](NC(=O)[C@H](C)NC(=O)CNC(=O)[C@H](C)NC(=O)[C@H](C)NC(=O)[C@H](C)NC(=O)[C@H](C)NC(=O)CNC(=O)[C@H](C)N)C(C)C)C(C)C)C(=O)N[C@@H](CO)C(=O)N[C@@H](CCCNC(=N)N)C(=O)N1CCC[C@H]1C(=O)N[C@@H](CCSC)C(=O)N[C@@H](CCSC)C(=O)N[C@@H](Cc1c[nH]cn1)C(=O)N[C@@H](Cc1ccccc1)C(=O)O` [P113-141], for which the “peptide induced aggregation of 35S-HaPrPsen” value is “caused aggregation and pelleting of 35S-HaPrPsen”.
